B1: … (peptide)
peptide: TPQRARRRKKRG
modifications: not checked
B2: … (peptide)
peptide: AARERRRKKRG
modifications: not checked
B3: … (peptide)
peptide: TPQRARRRKKRF
modifications: not checked
B4: … (peptide)
peptide: TPQRARRRKKRM
modifications: not checked
B5: … (peptide)
peptide: TPQRARRRKKRD
modifications: not checked
B6: … (peptide)
peptide: TPQRERRRKKRG
modifications: not checked
B7: … (peptide)
peptide: TPQRARRRKKRW
modifications: not checked
B8: … (peptide)
peptide: TPQRARRRKKRV
modifications: not checked
B9: … (peptide)
peptide: TPQRARRRKKRY
modifications: not checked
B10: … (peptide)
peptide: TPQRARRRKKRE
modifications: not checked
B11: … (peptide)
peptide: AARERRRKKR
modifications: not checked

What follows are binders tested against Recombinant human furin (human), P09958 (assay: furin, Pyr-RTKR-AMC cleavage).
Binder B1 has a Ki greater than 100 nM.
B2 gave a Ki greater than 100 nM.
With B3 the Ki was 44 nM.
Work on B4 yielded a Ki of 58 nM.
With B5 the Ki was 50 nM.
Binder B6 has a Ki greater than 100 nM.
With B7 the Ki was 34 nM.
B8 gave a Ki of 48 nM.
With B9 the Ki was 47 nM.
B10 was tested, and the Ki was 103 nM.
B11 showed a Ki greater than 100 nM.

— patent publication US20090029924A1, “Targeting host proteinases as a therapeutic strategy against viral and bacterial pathogens” (published 2009)
